Compound potency records, mixed from different reports. Data source: NIAID ChemDB in PubChem.

Common to all: whole-cell or culture tests; organism: Mycobacterium tuberculosis

Conditions beyond the fields shown may differ between rows. Percent inhibition refers to the dose given; in toxicity tests it is the harm to the cells. Fold resistance: result on the changed form divided by that on wild type. MIC50, MIC90 and the like: level of inhibition, or share of isolates inhibited. Two numbers with a dash give a range or band. Blank or dashed fields: not listed here. MIC bound: limit read from a one-dose screen. ECn is the concentration giving n% inhibition of infection, replication or growth.

structure	strain or isolate	tested at	mutations	conditions	method	measure	result
O=C([C@@H](O)CO)N1CC=C(c2c(F)cc(N3C[C@H](COc4ccon4)OC3=O)cc2F)CC1	H37Rv (ATCC 27294)				broth dilution	MIC	1 µg/mL
Cc1cccc(OCC(=O)N=Nc2c(O)[nH]c3ccccc23)c1	H37Rv					MIC	>12.5 µg/mL
O=C(NNC(=S)Nc1ccccc1C(F)(F)F)c1ccncc1	INH resistant					MIC	0.58 µM
CC1(C)O[C@H]2OC([C@H](CCO)NCCCCCCCCCCCCN[C@@H](CCO)C3O[C@@H]4OC(C)(C)O[C@@H]4[C@H]3OCc3ccccc3)[C@H](OCc3ccccc3)[C@H]2O1	H37Rv					MIC	12.5 µg/mL
NC(=N\N=C(/c1ccccc1)c1ccc(N)cc1)/C(N)=N/N=C(\c1ccccc1)c1ccc(N)cc1	H37Rv				BACTEC	MIC	≥12.5 µg/mL
CC(C)[C@H]1CO[C@]23CC[C@H](N(Cc4ccc(C(F)(F)F)cc4)C4CCC4)C[C@H]2CCC(=O)N13					resazurin	MIC	<0.5 µM
O=C(N=Nc1c(O)[nH]c2ccccc12)c1ccc(F)cc1	H37Rv					EC50	>6.25 µg/mL
CC(C)[C@H]1CO[C@]23CC[C@@H](NCc4cc(C(F)(F)F)nc5ccccc45)C[C@H]2CCC(=O)N13					resazurin	MIC	<0.5 µM
CCc1nc2ccccc2n1CCCCSc1ccc(OC)cc1	H37Rv				turbidity / fluorescence	MIC99	4.8 µM
CNC(=S)N=Nc1c(O)[nH]c2ccc(Br)cc12	H37Rv					MIC	>12.5 µg/mL
O=C(NNC(=S)Nc1ccc(Cl)cc1)c1ccncc1	INH resistant					MIC	7.62 µM
CCC1(c2ccccc2)NC(=O)N(N)C1=O	H37Rv	12.5 µg/mL			BACTEC	inhibition	0%
CO[C@H]1/C=C/O[C@@]2(C)Oc3c(C)c(O)c4c(O)c(c(/C=N/N5CCN(C)CC5)c(O)c4c3C2=O)NC(=O)/C(C)=C\C=C\[C@H](C)[C@H](O)[C@@H](C)[C@@H](O)[C@@H](C)[C@H](OC(C)=O)[C@@H]1C	FJ05349		Clinically sensitive strain		resazurin	MIC	0.5 µg/mL
Cc1cc(Br)ccc1NC(=S)NNC(=O)c1ccncc1	INH resistant					MIC	1.06 µM
CCc1nc2ccc(C)cc2n1CCCCOc1ccccc1	H37Rv		QcrB M342T		turbidity / fluorescence	MIC90	73 µM
CO[C@H]1/C=C/O[C@@]2(C)Oc3c(C)c(O)c4c(O)c(c5c(c4c3C2=O)NC2(CCN(Cc3ccccc3)CC2)N=5)=NC(=O)/C(C)=C\C=C\[C@H](C)[C@H](O)[C@@H](C)[C@@H](O)[C@@H](C)[C@H](OC(C)=O)[C@@H]1C	H37Rv				resazurin	MIC	≤0.1 µg/mL
O=C(NNC(=S)Nc1ccc(Br)cc1)c1ccncc1	WT					MIC	2.22 µM
CC1CN(c2c(F)cc3c(=O)c(C(=O)O)cn(C4CC4)c3c2F)CC(C)N1	CSU11					MIC	≤0.125 µg/mL
CCOC(=O)CC(NCCCCNC(CC(=O)OCC)[C@H]1O[C@@H]2CC(C)(C)C[C@@H]2[C@H]2CC(C)(C)C[C@H]21)[C@H]1O[C@@H]2CC(C)(C)C[C@@H]2[C@H]2CC(C)(C)C[C@H]21	H37Rv					MIC	>12.5 µg/mL
CO[C@H]1/C=C/O[C@@]2(C)Oc3c(C)c(O)c4c(=O)c(c5oc6cc(N7CCN(CC(C)C)CC7)cc(=O)c6nc5c4c3=C2O)NC(=O)/C(C)=C\C=C\[C@H](C)[C@H](O)[C@@H](C)[C@@H](O)[C@@H](C)[C@H](OC(C)=O)[C@@H]1C	FUJII	10 µg/mL		inside macrophages		inhibition	97.5%
CO[C@H]1/C=C/O[C@@]2(C)Oc3c(C)c(O)c4c(O)c(c(/C=N/N5CCN(C6CCCC6)CC5)c(O)c4c3C2=O)NC(=O)/C(C)=C\C=C\[C@H](C)[C@H](O)[C@@H](C)[C@@H](O)[C@@H](C)[C@H](O)[C@@H]1C	Atencio					MBC	0.25 µg/mL
C=CCN=C(N=Nc1c(O)[nH]c2ccccc12)SCC(=O)c1ccc([N+](=O)[O-])cc1	H37Rv					EC50	>12 µg/mL
NC1N=C(c2ccc(Cl)cc2)C2=C(N1)c1ccccc1CC2	H37Rv	12.5 µg/mL			BACTEC	inhibition	97%
O=C(NNC(=O)c1ccncc1)Nc1ccc(F)c(C(F)(F)F)c1	My 331/88			14 d	broth dilution	MIC100	32 µM
CN(C)c1ccc(/C=C/C/C=N/NC(=O)c2ccc(F)cc2)cc1	H37Rv	6.25 µg/mL				inhibition	23%
CC(C)[C@H]1CO[C@]23CC[C@H](N(Cc4ccc(C(F)(F)F)cc4)CC4CCCN4C(=O)OC(C)(C)C)C[C@H]2CCC(=O)N13					resazurin	MIC	<0.5 µM
COc1ncc(F)c2nc(S(=O)(=O)Nc3ncccc3C(C)=O)nn12	P887		INH RIF resistant		visual reading	MIC50	0.5 µM
O=C1CSC(=NCCN=C2NC(=O)CS2)N1	H37Rv	6.25 µg/mL			resazurin	inhibition	29%
CC(C)[C@H]1CO[C@]23CC[C@H](NCC4=Cc5ccccc5C4N)C[C@H]2CCC(=O)N13					resazurin	MIC	<0.5 µM
COC(=O)C[C@]1(C(=O)OC)[C@@H](C(=O)OC)C(C(=O)OC)N(C(C)=O)N1C	H37Rv	12.5 µg/mL			BACTEC	inhibition	0%
COc1ccc(Nc2nnc(-c3ccncc3)o2)cc1	My 331/88			14 d	broth dilution	MIC100	>125 µM
O=C(O)c1cnccn1	1620					MIC	480 µg/mL
Cc1nc2nc(S(=O)(=O)Nc3c(Br)ccc4cccnc34)nn2c2c1CCC2	X59		INH RIF resistant		visual reading	MIC50	2 µM
O=C(NNC(=O)c1ccncc1)Nc1ccc(Cl)c(Cl)c1	My 331/88			14 d	broth dilution	MIC100	125 µM
CCOC(=O)CC(NCCCCCCCCNC(CC(=O)OCC)[C@H]1O[C@@H]2CC(C)(C)C[C@@H]2[C@H]2CC(C)(C)C[C@H]21)[C@H]1O[C@@H]2CC(C)(C)C[C@@H]2[C@H]2CC(C)(C)C[C@H]21	H37Rv					MIC	>25 µg/mL
CC(=O)NC[C@H]1CN(c2ccc(N3CCOCC3)c(F)c2)C(=O)O1	linezolid resistant 8.3		T460C Cys154Arg			MIC	16 µg/mL
NNC(=O)c1ccncc1	My 331/88			21 d	broth dilution	MIC100	0.5 µM
C=C(CN[C@@H]1CC[C@]23OC[C@H](C(C)C)N2C(=O)CC[C@@H]3C1)c1ccc(C(F)(F)F)cc1					resazurin	MIC	0.5–5 µM
CNc1ccc2nc3ccc(=[N+](C)C)cc-3sc2c1.[Br-]	H37Rv	12.5 µg/mL			BACTEC	inhibition	-11%
O=C(N/N=C/c1ccccc1O)c1ccc(F)cc1	H37Rv					EC50	>6.25 µg/mL
COc1cc2cccnc2c2[nH]c(=O)c3c(c12)CCC3	H37Rv	12.5 µg/mL			BACTEC	inhibition	-26%
CCOC(=O)C[C@H](NCCCCCCCCCN[C@@H](CC(=O)OCC)C1O[C@@H]2OC(C)(C)O[C@@H]2[C@H]1OCc1ccccc1)C1O[C@@H]2OC(C)(C)O[C@@H]2[C@H]1OCc1ccccc1	H37Rv					MIC	6.25 µg/mL
CC(=O)OC1C(=O)C=C(C)OC1=O	H37Rv				resazurin	MIC bound	>6.25 µg/mL
NNC(=O)c1ccncc1	TRC-resistant					MIC	0.05 µg/mL
CCCCN(CCCC)/N=C/C1=C2NC(=O)/C(C)=C\C=C/C(OC)C(OC(N)=O)/C(C)=C/C(C)C(O)C(OC)CC(C)CC(=C(OC)C1=O)C2=O	H37Rv	12.5 µg/mL			BACTEC	inhibition	95%
O=C(NNC(=O)c1ccncc1)Nc1ccc(Br)cc1F	My 331/88			14 d	broth dilution	MIC100	32 µM
CCc1nc2ccccc2n1CCCCNc1ccc(OC)cc1	H37Rv				turbidity / fluorescence	MIC90	>100 µM
O=C(O)c1cn(C2CC2)c2c(F)c(N3CCSCC3)c(F)cc2c1=O	Erdman					MIC	0.5 µg/mL
NNC(=O)c1ccncc1	linezolid resistant 8.1		T460C Cys154Arg			MIC	0.06 µg/mL
O=C1OC(c2ccccc2)=N/C1=C/c1cccc2ccccc12	H37Rv	12.5 µg/mL			BACTEC	inhibition	16%
C[C@H]1COc2c(N3CCN(C)CC3)c(F)cc3c(=O)c(C(=O)O)cn1c23	CSU18					MIC	≤0.125 µg/mL
O=C(NNC(=O)c1ccncc1)Nc1c(Cl)cc(Cl)cc1Cl	My 331/88			21 d	broth dilution	MIC100	4 µM
CCOc1ccc2c(c1)n([O-])c1cc(Cl)ccc1[n+]2=O	INH-r					MIC	3.1 µg/mL
CCc1nc2ccc(C)cc2n1CCCNc1ccc(Br)c(C)c1	H37Rv		QcrB M342T		turbidity / fluorescence	fold resistance	>152
CCN(CC)CCOC(=O)c1c2nc3c(C(=O)OCCN(CC)CC)ccc(C)c3oc-2c(C)c(=O)c1N	H37Rv	12.5 µg/mL			BACTEC	inhibition	86%
C[C@@H]1CN(c2c(F)c(N)c3c(=O)c(C(=O)O)cn(C4CC4)c3c2F)C[C@H](C)N1	891207					MIC	0.2 µg/mL
COC(=O)CN1C(=O)OC(c2ccccc2)C1=O	H37Rv				BACTEC	MIC bound	>12.5 µg/mL
CC(C)[C@H]1CO[C@]23CC[C@H](N(Cc4ccc(C(F)(F)F)cc4)C4CC4)C[C@H]2CCC(=O)N13					resazurin	MIC	<0.5 µM
CC1(C)C[C@H]2[C@@H](C1)[C@@H](C(CCO)NCCCCCCCCCCCCNC(CCO)[C@H]1O[C@@H]3CC(C)(C)C[C@@H]3[C@H]3CC(C)(C)C[C@H]31)O[C@@H]1CC(C)(C)C[C@H]21	H37Rv					MIC	25 µg/mL
Cc1ccc(-c2cc(-c3ccco3)c(C#N)c(=O)n2[C@@H]2O[C@H](CO)[C@@H](O)[C@H](O)[C@H]2O)cc1	H37Rv				BACTEC	MIC bound	>12.5 µg/mL
CO[C@H]1/C=C/O[C@@]2(C)Oc3c(C)c(O)c4c(=O)c(c5oc6cc(N7CCN(CC(C)C)CC7)cc(=O)c6nc5c4c3=C2O)NC(=O)/C(C)=C\C=C\[C@H](C)[C@H](O)[C@@H](C)[C@@H](O)[C@@H](C)[C@H](OC(C)=O)[C@@H]1C	Atencio					MIC	0.004 µg/mL
CCOC(=O)CCC1(C(=O)OCC)Oc2ccc(Cl)cc2C1=O	H37Rv				BACTEC	MIC bound	>12.5 µg/mL
NNC(=O)c1ccncc1	Pan-susceptible clinical isolate 2					MIC	0.06 µg/mL
CC(C)[C@H]1CO[C@]23CC[C@@H](OC(c4ccc(F)cc4)c4ccc(F)cc4)C[C@H]2CCC(=O)N13					resazurin	MIC	<0.5 µM
O=C(N/N=C/c1ccc([N+](=O)[O-])cc1[N+](=O)[O-])c1ccc(F)cc1	H37Rv					EC50	>6.25 µg/mL
CCCCn1c(-c2ccc(OC)cc2)cs/c1=N\N=C1/C(=O)Nc2ccccc21	H37Rv	12 µg/mL				inhibition	49%
CN(C)c1ccc(N=Nc2ccc3ccc4c(N=Nc5ccc(N(C)C)cc5)ccc5ccc2c3c54)cc1	H37Rv				resazurin	MIC bound	>6.25 µg/mL
CC1(C)C[C@H]2[C@@H](C1)[C@@H](C(CCO)NCCCCCCCNC(CCO)[C@H]1O[C@@H]3CC(C)(C)C[C@@H]3[C@H]3CC(C)(C)C[C@H]31)O[C@@H]1CC(C)(C)C[C@H]21	H37Rv					MIC	>25 µg/mL
COc1cc(C(=O)NN)cc(OC)c1OC	H37Rv				BACTEC	MIC bound	>12.5 µg/mL
CCc1nc2ccccc2n1CCCNc1ccc(C)c(C)c1	H37Rv				turbidity / fluorescence	MIC99	0.65 µM
CC(=O)Nc1nnc(-c2coc3ccccc3c2=O)s1	H37Rv	12.5 µg/mL			BACTEC	inhibition	0%
c1ccc2cc(OCCCn3ccnc3)ccc2c1	H37Rv				turbidity / fluorescence	MIC99	>20 µM
O=C1N(Cc2ccccc2)CCN1Cc1ccccc1	H37Rv				BACTEC	MIC bound	>12.5 µg/mL
NNC(=O)c1ccncc1	CSU18					MIC	4 µg/mL

A second listing of 7 rows from above:

structure | strain or isolate | tested at | mutations | conditions | method | measure | result
O=C(NNC(=O)c1ccncc1)Nc1ccc(Br)cc1F | My 331/88 |  |  | 14 d | broth dilution | MIC100 | 32 µM
O=C(NNC(=O)c1ccncc1)Nc1ccc(Cl)c(Cl)c1 | My 331/88 |  |  | 14 d | broth dilution | MIC100 | 125 µM
COc1ncc(F)c2nc(S(=O)(=O)Nc3ncccc3C(C)=O)nn12 | P887 |  | INH RIF resistant |  | visual reading | MIC50 | 0.5 µM
CCCCn1c(-c2ccc(OC)cc2)cs/c1=N\N=C1/C(=O)Nc2ccccc21 | H37Rv | 12 µg/mL |  |  |  | inhibition | 49%
CC1(C)C[C@H]2[C@@H](C1)[C@@H](C(CCO)NCCCCCCCNC(CCO)[C@H]1O[C@@H]3CC(C)(C)C[C@@H]3[C@H]3CC(C)(C)C[C@H]31)O[C@@H]1CC(C)(C)C[C@H]21 | H37Rv |  |  |  |  | MIC | >25 µg/mL
CC1(C)O[C@H]2OC([C@H](CCO)NCCCCCCCCCCCCN[C@@H](CCO)C3O[C@@H]4OC(C)(C)O[C@@H]4[C@H]3OCc3ccccc3)[C@H](OCc3ccccc3)[C@H]2O1 | H37Rv |  |  |  |  | MIC | 12.5 µg/mL
O=C(N/N=C/c1ccc([N+](=O)[O-])cc1[N+](=O)[O-])c1ccc(F)cc1 | H37Rv |  |  |  |  | EC50 | >6.25 µg/mL